Anti-infective test results gathered from many reports (values: NIAID ChemDB through PubChem).

Shared fields: tests in culture; organism: HIV-1; method: p24; endpoint: EC50

Rows are shuffled and stem from different studies.

Cc1cn([C@@H]2O[C@H](CO[Si](C)(C)C(C)(C)C)C3(OS(=O)(=O)C=C3N)[C@H]2O[Si](C)(C)C(C)(C)C)c(=O)n(C)c1=O ; changes: RT-K103N ; strain: IIIB ; cell line: CEM ; value: 0.138 µg/mL
O=C1N(Cc2ccc(CO)cc2)[C@H](Cc2ccccc2)[C@H](O)[C@@H](O)[C@@H](Cc2ccccc2)N1Cc1ccc(CO)cc1 ; strain: Clinical isolate N ; cell line: PBMC ; value: <0.018 µM
Cc1cn([C@H]2C[C@H](N=[N+]=[N-])[C@@H](CO)O2)c(=O)[nH]c1=O ; strain: GB8 ; cell line: JM ; value: >100 µM
Cc1cn([C@H]2C[C@H](N=[N+]=[N-])[C@@H](CO)O2)c(=O)[nH]c1=O ; strain: LAI Laboratory isolate ; cell line: PBMC ; value: 0.003 µM
O=c1[nH]cnc2c1ncn2[C@H]1CC[C@@H](CO)O1 ; strain: H9/HTLV-IIIB ; cell line: PBMC ; value: 2.2 µM
CC(C)(C)NC(=O)[C@@H]1C[C@@H]2CCCC[C@@H]2CN1C[C@@H](O)[C@H](Cc1ccccc1)NC(=O)[C@H](CC(N)=O)NC(=O)c1ccc2ccccc2n1 ; changes: PR-M46I L63P V82T ; strain: NL4-3 ; cell line: MT-4 ; value: <0.025 µM
CC(C)OC(=O)OCOP(=O)(CO[C@H](C)Cn1cnc2c(N)ncnc21)OCOC(=O)OC(C)C ; strain: SUM9 (WT) ; cell line: MT-2 ; value: 0.02 µM
O=c1[nH]cnc2c1ncn2[C@H]1CC[C@@H](CO)O1 ; strain: NL4-3 WT ; cell line: MT-4 ; value: <6.5 µM
O=C(N[C@H]1c2ccccc2OC[C@H]1O)[C@H](Cc1cccnc1)C[C@H](O)CN1CCN(Cc2ccn(-c3cc(Cl)c(Cl)c(Cl)c3)c2)C[C@H]1C(=O)NCC(F)(F)F ; changes: PR-L10I M46I I54V Q58E L63P I64V V77I V82F I84V L90M I93L ; strain: K-60C Clinical isolate ; cell line: MT-4 ; value: <0.031 µM
CC(C)=CCN1Cc2cc(Cl)cc3[nH]c(=S)n(c23)C[C@@H]1C ; strain: IIIB ; cell line: CEM ; value: 0.02 µg/mL
COc1ccc(CN[C@@H](C(=O)N[C@H]2c3ccccc3C[C@H]2O)[C@H](O)[C@H](Cc2ccccc2)NC(=O)[C@@H](NC(=O)OCc2ccccc2)C(C)(C)C)cc1 ; strain: K31 ; cell line: Primary T4 cells + T4 ; value: 0.15 µM
O=C(N[C@H]1c2ccccc2OC[C@H]1O)[C@H](Cc1cccnc1)C[C@H](O)CN1CCN(Cc2ccn(-c3ccc(C(F)(F)F)cc3)c2)C[C@H]1C(=O)NCC(F)(F)F ; strain: NL4-3 WT ; cell line: MT-4 ; value: <0.015 µM
Cc1cc(C)c(-n2nnnc2SCC(=O)Nc2ccccc2Br)c(C)c1 ; setting: 50% human serum ; cell line: MT-4 ; value: <0.81 µM
Nc1ccn([C@H]2CC[C@@H](CO)O2)c(=O)n1 ; strain: RF ; cell line: C8166 ; value: 0.9 µM
N#Cc1cccc(-n2ccc(CN3CCN(C[C@@H](O)C[C@@H](Cc4cccnc4)C(=O)N[C@H]4c5ccccc5OC[C@H]4O)[C@H](C(=O)NCC(F)(F)F)C3)c2)c1 ; strain: NL4-3 WT ; cell line: MT-4 ; value: <0.062 µM
CC(C)CN(C[C@@H](O)[C@H](Cc1ccccc1)NC(=O)O[C@H]1CCOC1)S(=O)(=O)c1ccc(N)cc1 ; changes: PR-L10I V11I T12E I15V L19I R41K M46L L63 A71T V82A L90M ; strain: Clinical isolate ; cell line: PBMC ; value: 0.31 µM
Cc1ccc(NC(=O)Nc2ccc(-c3ccc(NC(=O)Nc4ccc(-c5ccc(NC(=O)Nc6ccc(-c7ccc(NC(=O)Nc8ccc(-c9ccc(NC(=O)Nc%10ccc(-c%11ccc(NC(=O)Nc%12ccc(-c%13ccc(NC(=O)Nc%14ccc(C)cc%14)cc%13S(=O)(=O)O)c(S(=O)(=O)O)c%12)cc%11S(=O)(=O)O)c(S(=O)(=O)O)c%10)cc9S(=O)(=O)O)c(S(=O)(=O)O)c8)cc7S(=O)(=O)O)c(S(=O)(=O)O)c6)cc5S(=O)(=O)O)c(S(=O)(=O)O)c4)cc3S(=O)(=O)O)c(S(=O)(=O)O)c2)cc1 ; strain: GB8 ; cell line: JM ; value: 0.1 µM
C[C@@H](CNC(=S)Nc1ccccn1)c1ccccc1 ; changes: RT-Y181C K103N ; strain: NNRTI-resistant (RT Y181C K103N) A17V ; cell line: PBMC ; value: 0.54 µM
C=C(C)OC(=O)N1c2cc(Cl)ccc2NC(=S)C1(C)C ; strain: D117III ; cell line: Macrophage + Monocytes/macrophages ; value: 0.008 µM
Cc1cn([C@H]2C[C@H](N=[N+]=[N-])[C@@H](CO)O2)c(=O)[nH]c1=O ; changes: RT-K65R ; strain: K65R(RT-K65R) ; cell line: MT-2 ; value: 0.016 µM
C/C(=C(/CCO)SS/C(CCO)=C(\C)N(C=O)Cc1cnc(C)nc1N)N(C=O)Cc1cnc(C)nc1N ; strain: MN ; cell line: H9/HIV-1(MN) + H9 ; value: <500 µM
Nc1ccn([C@H]2CC[C@@H](CO)O2)c(=O)n1 ; changes: RT-T69G ; cell line: MT-2 ; value: 0.282 µM
Nc1ncnc2c1ncn2CCOCP(=O)(O)O ; changes: RT-T215Y ; strain: T215Y(RT-T215Y) ; cell line: MT-2 ; value: 1.8 µM
Cc1cc(C)c(-n2nnnc2SCC(=O)Nc2ccc(Cl)cc2[N+](=O)[O-])c(C)c1 ; setting: 50% human serum ; cell line: MT-4 ; value: <0.4 µM
Nc1ccn([C@H]2CC[C@@H](CO)O2)c(=O)n1 ; strain: HXB2D ; cell line: MT-4 ; value: 0.5 µM
CC(C)c1nc(CN(C)C(=O)N[C@H](C(=O)N[C@@H](Cc2ccccc2)C[C@H](O)[C@H](Cc2ccccc2)NC(=O)OCc2cncs2)C(C)C)cs1 ; changes: PR-L10I V11I T12E I15V L19I R41K M46L L63 A71T V82A L90M ; strain: Clinical isolate ; cell line: PBMC ; value: >1 µM
Cc1cc(C)c(-n2nnnc2SCC(=O)Nc2ccc([N+](=O)[O-])cc2C)c(C)c1 ; cell line: MT-4 ; value: <10 µM
CCc1cc(NCc2nc3c(Cl)ccc(Cl)c3o2)c(=O)[nH]c1C ; strain: MN ; cell line: H9 ; value: 0.067 µM
Nc1ncnc2c1ncn2[C@@H]1O[C@H](CO)C[C@@H]1F ; strain: HXB2 ; cell line: MT-2 ; value: 5.8 µM
Cc1cc(C)c(-n2nnnc2SCC(=O)Nc2ccc(Cl)cc2[N+](=O)[O-])c(C)c1 ; cell line: MT-4 ; value: <10 µM
Cc1cc(C)c(-n2nnnc2SCC(=O)Nc2ccc(S(N)(=O)=O)cc2C)c(C)c1 ; setting: 50% human serum ; cell line: MT-4 ; value: <0.58 µM
C[C@@H](NC(=S)Nc1ccc(Cl)cn1)c1cccc2ccccc12 ; strain: IIIB ; cell line: PBMC ; value: 0.001 µM
Cc1cn([C@H]2C=C[C@@H](CO)O2)c(=O)[nH]c1=O ; changes: RT-V75I F77L Q151M ; strain: Recombinant ; cell line: PBMC ; value: 0.08 µM
CCC[C@@]1(CCc2ccccc2)CC(O)=C([C@H](CC)c2cccc(NS(=O)(=O)c3ccc(C(F)(F)F)cn3)c2)C(=O)O1 ; strain: Isolate UJ00007 ; cell line: PBMC ; value: <0.15 µM
Cc1ccc(NC(=S)N[C@H](C)c2cccc3ccccc23)nc1 ; changes: RT-Y181C K103N ; strain: NNRTI-resistant (RT Y181C K103N) A17V ; cell line: PBMC ; value: 0.543 µM
O=C(O)P(=O)(O)O ; strain: 8564 CLADE D CLADE D ; cell line: PBMC ; value: 14.8 µM
Cc1cn([C@H]2C=C[C@@H](CO)O2)c(=O)[nH]c1=O ; changes: RT-delta67 T69G ; cell line: MT-2 ; value: 0.5 µM
C[C@@H](CNC(=S)Nc1ccc(Br)cn1)c1ccccc1 ; changes: RT-Y181C K103N ; strain: NNRTI-resistant (RT Y181C K103N) A17V ; cell line: PBMC ; value: 1.08 µM
Cc1cc(C)c(-n2nnnc2SCC(=O)Nc2cccc(Cl)c2F)c(C)c1 ; cell line: MT-4 ; value: <10 µM
Cc1cc(C)c(-n2nnnc2SCC(=O)Nc2ccc(C(N)=O)cc2Cl)c(C)c1 ; setting: 50% human serum ; cell line: MT-4 ; value: <0.016 µM
Cc1occc1C(=S)Nc1ccc(Cl)c(/C=N/OC(C)(C)C)c1 ; changes: RT-Y181C ; strain: IIIB ; cell line: CEM ; value: 0.075 µg/mL
Cc1ccc(Cl)cc1-n1nnnc1SCC(=O)Nc1ccccc1[N+](=O)[O-] ; setting: 10% FBS ; cell line: MT-4 ; value: <0.063 µM
CC(C)[C@H](NC(=O)c1ccc2ccccc2n1)C(=O)N[C@@H](Cc1ccccc1)[C@H](O)CN1CC[C@@H](OCc2ccncc2)C[C@H]1C(=O)NC(C)(C)C ; strain: VR949 ; cell line: PBMC ; value: 0.011 µM
Cc1cc(C)c(-n2nnnc2SCC(=O)Nc2ccc(S(=O)(=O)Nc3nc(C)c(C)o3)cc2)c(C)c1 ; cell line: MT-4 ; value: <10 µM
Cc1cn([C@H]2C[C@H](N=[N+]=[N-])[C@@H](CO)O2)c(=O)[nH]c1=O ; changes: RT-V75I ; strain: Recombinant ; cell line: PBMC ; value: 0.001 µM
Cc1cn([C@H]2C[C@H](N=[N+]=[N-])[C@@H](CO)O2)c(=O)[nH]c1=O ; strain: HXB2D ; cell line: MT-4 ; value: 0.012 µM
COC(=O)[C@H](C)NP(=O)(OC[C@@H]1C=C[C@H](n2cc(C)c(=O)[nH]c2=O)O1)Oc1ccc(Br)cc1 ; changes: RT-D67N T69N K70R M184V T215F K219Q ; strain: 7295-1 NRTI resistant recombinant ; cell line: PBMC ; value: 0.043 µM
CN[C@@H]1[C@H](O[C@@H]2OC[C@@H](O)[C@H](O)[C@H]2O)[C@@H](O)[C@H](O[C@H]2c3cc(C)c(C(=O)N[C@H](C)C(=O)O)c(O)c3-c3c(cc4c(c3O)C(=O)c3cc(OC)cc(O)c3C4=O)[C@@H]2O)O[C@@H]1C ; strain: ETH2220 R5 CLADE C ; cell line: PBMC ; value: 8.7 µg/mL
Cc1cn([C@H]2C[C@H](N=[N+]=[N-])[C@@H](CO)O2)c(=O)[nH]c1=O ; changes: RT-M41L D67N K70R L210W T215Y ; strain: G704-2 NRTI resistant ; cell line: PBMC ; value: 1.8 µM
CC(C)CN(C[C@@H](O)[C@H](Cc1ccccc1)NC(=O)O[C@H]1CCOC1)S(=O)(=O)c1ccc(N)cc1 ; changes: PR-D30N M46I A71V ; strain: NL4-3 ; cell line: MT-4 ; value: <0.04 µM
CC(C)(C)NC(=O)[C@@H]1CN(Cc2cccnc2)CCN1C[C@@H](O)C[C@@H](Cc1ccccc1)C(=O)N[C@H]1c2ccccc2C[C@H]1O ; changes: PR-L10R N37D M46I I62V L63P A71V G73S V77I V82T L90M I93L ; strain: Clinical isolate ; cell line: PBMC ; value: 0.55 µM
c1cc(CN2CCCNCCNCCCNCC2)ccc1CN1CCCNCCNCCCNCC1 ; strain: SW5 CLADE C R5 ; cell line: PBMC ; value: >0.5 µM
C[C@@H](NC(=S)Nc1nc2ccccc2s1)c1cccc2ccccc12 ; strain: IIIB ; cell line: PBMC ; value: 0.205 µM
Cc1cn([C@H]2C[C@H](N=[N+]=[N-])[C@@H](CO)O2)c(=O)[nH]c1=O ; changes: RT-K65R L74V M184V Y115F ; strain: XM-ABC-resistant ; cell line: MT-4 ; value: <0.04 µM
O=c1c2ccccc2n2nnc3ccc(NCCCN4CCN(CCCNc5ccc6nnn7c8ccccc8c(=O)c5c67)CC4)c1c32 ; strain: CLADE B ; cell line: PBL ; value: 0.0056 µM
NS(=O)(=O)c1ccc(NC(=O)CSc2nnnn2-c2cccc(Cl)c2Cl)c(Cl)c1 ; setting: 50% human serum ; cell line: MT-4 ; value: <0.25 µM
O=c1[nH]cnc2c1ncn2[C@H]1CC[C@@H](CO)O1 ; changes: RT-Q151M ; strain: Q151M(RT-Q151M) ; cell line: MT-2 ; value: 2.7 µM
O=C(N[C@H]1c2ccccc2OC[C@H]1O)[C@H](Cc1cccnc1)C[C@H](O)CN1CCN(Cc2ccn(-c3ccccc3C(F)(F)F)c2)C[C@H]1C(=O)NCC(F)(F)F ; strain: NL4-3 WT ; cell line: MT-4 ; value: <0.038 µM
Nc1ccn([C@H]2CC[C@@H](CO)O2)c(=O)n1 ; changes: RT-D67N K70R T215F K219Q ; strain: RTMC (RT D67N K70R T215F K219Q) ; cell line: CEM ; value: 0.025 µg/mL
CC(C)CN(C[C@@H](O)[C@H](Cc1ccccc1)NC(=O)[C@H](CC(N)=O)NC(=O)c1ccc2ccccc2n1)C(=O)NC(C)(C)C ; changes: PR-L10R ; strain: NL4-3 ; cell line: MT-4 ; value: <0.1 µM

Repeating the final 8 entries:

| SMILES | setting | changes | strain | cell line | value |
|---|---|---|---|---|---|
| C[C@@H](NC(=S)Nc1nc2ccccc2s1)c1cccc2ccccc12 | - | - | IIIB | PBMC | 0.205 µM |
| Cc1cn([C@H]2C[C@H](N=[N+]=[N-])[C@@H](CO)O2)c(=O)[nH]c1=O | - | RT-K65R L74V M184V Y115F | XM-ABC-resistant | MT-4 | <0.04 µM |
| O=c1c2ccccc2n2nnc3ccc(NCCCN4CCN(CCCNc5ccc6nnn7c8ccccc8c(=O)c5c67)CC4)c1c32 | - | - | CLADE B | PBL | 0.0056 µM |
| NS(=O)(=O)c1ccc(NC(=O)CSc2nnnn2-c2cccc(Cl)c2Cl)c(Cl)c1 | 50% human serum | - | - | MT-4 | <0.25 µM |
| O=c1[nH]cnc2c1ncn2[C@H]1CC[C@@H](CO)O1 | - | RT-Q151M | Q151M(RT-Q151M) | MT-2 | 2.7 µM |
| O=C(N[C@H]1c2ccccc2OC[C@H]1O)[C@H](Cc1cccnc1)C[C@H](O)CN1CCN(Cc2ccn(-c3ccccc3C(F)(F)F)c2)C[C@H]1C(=O)NCC(F)(F)F | - | - | NL4-3 WT | MT-4 | <0.038 µM |
| Nc1ccn([C@H]2CC[C@@H](CO)O2)c(=O)n1 | - | RT-D67N K70R T215F K219Q | RTMC (RT D67N K70R T215F K219Q) | CEM | 0.025 µg/mL |
| CC(C)CN(C[C@@H](O)[C@H](Cc1ccccc1)NC(=O)[C@H](CC(N)=O)NC(=O)c1ccc2ccccc2n1)C(=O)NC(C)(C)C | - | PR-L10R | NL4-3 | MT-4 | <0.1 µM |

Blank or dashed fields: not listed here. ECn is the concentration giving n% inhibition of infection, replication or growth.